Data reported in patent US7094760B2, “Peptides for treatment of inflammation and shock” (Salpep Biotechnology, Inc., priority 1996, dated 2006).

Test system: LPS (Salmonella typhosa)-induced hypotension in sialadenectomized rats
Assay: endotoxin (LPS)-induced hypotension, sialadenectomized rats
Assay type: in vivo, rat
Conditions: peptide 100 μg/kg 90 min before LPS
Procedure: The animal model of endotoxic shock used involves intravenous injection of endotoxin (3.5 mg/kg of lipopolysaccharide (LPS) from Salmonella typhosa) into pentobarbital-anaesthetized Sprague-Dawley rats, to produce a fall in mean arterial blood pressure within 3 to 5 minutes. The endotoxin was injected slowly over 1 min. via the jugular vein, and mean arterial blood pressure in mm mercury (MABP) was monitored continuously for 60 min, with the average blood pressure being calculated at 15, 30, 45 and 60 min. Studies were performed on unoperated rats and rats with their submandibular glands removed (sialadenectomized).
The results shown in Table 1 are the averages of three different experiments using the protocol defined above. The data shown represent the average decrease in MABP (dec MABP) and the % Decrease in MABP over the 60 minutes following LPS administration. SGP-S (100μg/kg) and SGP-T (100 μg/kg) were administered 90 min. before LPS. […] Neither SGP-T nor SGP-S, when given prior to the LPS challenge, had appreciable effects on MABP.
The dose-response relationship of the inhibitory effect of SGP-T and SGP-S on endotoxin-induced hypotension was also examined and the results are shown in FIG. 1.

Substance	MABPbef = mean arterial blood pressure before LPS [mm Hg]
H-SGEGVR-OH [SGP-S, submandibular gland peptide S, SGEGVR]	119.7 ± 1.8
H-TDIFEGG-OH [SGP-T, submandibular gland peptide T, TDIFEGG]	123.3 ± 4.9
